Assay [1] deals with neuraminidase (NA) of B/Victoria-lineage viruses. As to conditions: cited from earlier work.
The test system of assay [2] is neuraminidase (NA) of A(H3N2) viruses. The conditions noted are these: N2 deletions at NA-245-248 and NA-247-250; ref Abed et al., 2009; Tamura et al., 2015; cited from earlier work.
The test system of assay [3] is neuraminidase (NA) of B/Victoria-lineage viruses. Nature of the assay: Fluorescence-based NA inhibition assay (MUNANA substrate). The format is biochemical, influenza B/Victoria-lineage virus. The conditions noted are these: for Fold-change in IC50: WHO CC London.
The mark [4] stands for this setting: influenza B NA-D197E, previously associated, ref Burnham et al., 2014, Hurt et al., 2006, Monto et al.
[5] abbreviates: influenza B NA-D197N, previously associated, ref NA marker tables.

Consider two compounds from article PMC12391581 (Antiviral Research, 2025).

Like-named read-outs stand apart in the source and are kept apart here.

Take `CCOC(=O)C1=C[C@@H](OC(CC)CC)[C@H](NC(C)=O)[C@@H](N)C1` [Oseltamivir, oseltamivir]: the “NAI inhibition phenotype (NI/RI/HRI)” value in assay [1] (setting [4]) is “RI (RI is a 5- to 50-fold increase)”; in assay [1] (setting [5]), “NI/RI”; in assay [2], “HRI (HRI is a >100-fold increase)”. The “Fold-change in IC50” value in assay [3] (B/Bulgaria/1896/2023, no NA substitution) is reported as 1.22 fold; in assay [3] (B/Catalonia/2279261NS/2023, no NA substitution) it was 1.07 fold; in assay [3] (B/Catalonia/3511044NS/2022, no NA substitution), 0.77 fold; in assay [3] (B/Netherlands/10195/2023, no NA substitution), 1.80 fold; in assay [3] (B/Netherlands/10258/2023, no NA substitution) it was 1.26 fold; in assay [3] (B/Slovenia/732/2023, no NA substitution), 1.85 fold. Moreover, the “IC50 fold-change compared to reference median IC50 values” in assay [3] (B/Victoria-lineage viruses with no known NA marker, n=6, Europe 2022–2023) is recorded as 0.77–1.85 fold.
Take peramivir: the “NAI inhibition phenotype (NI/RI/HRI)” value in assay [1] (B/Victoria-lineage NA-K360E, previously exhibiting, ref WHO-AVWG NA marker table) is listed as “HRI (HRI is a >50-fold increase)”; in assay [1] (setting [4]), “RI (RI is a 5- to 50-fold increase)”; in assay [1] (setting [5]) it was “NI/RI”.
